pEC50, pIC50: −log10 of the molar value.
What was measured:
229E Mpro = 229E Mpro (Human coronavirus 229E, UniProt P0C6X1); assay: 229E Mpro enzymatic assay; details: read-out: 229E Mpro EC50
HCoV 229E = HCoV 229E cytopathic effect; type: cell-based, human coronavirus (HCov) 229E; details: read-out: 229E CPE EC50; protection of virus-induced CPE
HCov OC43 = details: read-out: OC43 IC50 (uM) MEDIAN
[1] = test system: cells without virus infection
[2] = biological target: COVID-19 (nCoV-2019, SARS-CoV2) Mpro (Severe acute respiratory syndrome coronavirus 2, UniProt P0DTD1); assay: COVID-19; type: biochemical; details: read-out: COVID-19 Mpro IC50; 25 nM Mpro, 25 μM substrate

The chains behind the UniProt entries cited, without tags or fusion partners. Residues count along the entry.
UniProt P0C6X1, 2966-3267 limits assumed: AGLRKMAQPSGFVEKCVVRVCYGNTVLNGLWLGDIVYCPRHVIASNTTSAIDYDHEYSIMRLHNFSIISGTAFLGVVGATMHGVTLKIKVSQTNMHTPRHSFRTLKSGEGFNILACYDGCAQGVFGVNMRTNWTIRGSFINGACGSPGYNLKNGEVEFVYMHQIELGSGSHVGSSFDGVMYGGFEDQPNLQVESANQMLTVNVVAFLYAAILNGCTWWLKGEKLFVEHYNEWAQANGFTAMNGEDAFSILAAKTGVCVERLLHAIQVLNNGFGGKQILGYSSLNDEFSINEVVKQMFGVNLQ

Row | SMILES | pEC50 (229E Mpro) | pEC50 (HCoV 229E) | IC50 (HCov OC43) [µM] | CC50 [1] [µM] | pIC50 [2]
1 | CC(C)(C)NC(=O)C(c1cccnc1)N(C(=O)[C@H]1CCCN1C#N)c1ccc(C(C)(C)C)cc1 (single isomer, unassigned) | > 5.70 | > 5.70 | – | – | –
2 | CO[C@@H]1C[C@H](C(=O)N(c2ccc(C(C)(C)C)cc2)C(C(=O)NC2CCC(F)(F)CC2)c2cccnc2)N(C#N)C1 (single isomer, unassigned) [1139 Isomer 2] | > 5.70 | 5.00 to 5.70 | 2 to 10 | – | –
3 | CC(C)(C)c1ccc(N(C(=O)[C@H]2C[C@@H](O)CN2C#N)C(C(=O)NC2CCC(F)(F)CC2)c2cccnc2)cc1 (single isomer, unassigned) [583 Isomer 1] | > 5.70 | > 5.70 | < 2 | > 30 | –
4 | CO[C@@H]1C[C@H](C(=O)N(c2ccc(C(C)(C)C)cc2)C(C(=O)NC2CCC(F)(F)CC2)c2cccnc2)N(C#N)C1 (single isomer, unassigned) [1139 Isomer 1] | > 5.70 | > 5.70 | < 2 | – | –
5 | CC(C)(C)c1ccc(N(C(=O)[C@H]2CCCN2C#N)C(C(=O)NC2CCCCC2)c2cncc3ccccc23)cc1 (single isomer, unassigned) | > 5.70 | > 5.70 | 2 to 10 | 2 to 10 | –
6 | CC1(C)CN(C#N)[C@@H](C(=O)N(c2ccc(C(C)(C)C)cc2)C(C(=O)NC2CCCCC2)c2cccnc2)CO1 (single isomer, unassigned) [208 Isomer 1] | 5.00 to 5.70 | 5.00 to 5.70 | – | – | –
7 | CC(C)(C)c1ccc(N(C(=O)[C@H]2CCCN2C#N)C(C(=O)NC2CCC(F)(F)CC2)c2cccnc2)cc1 (single isomer, unassigned) | > 5.70 | > 5.70 | – | – | –
8 | CC(C)(C)c1ccc(N(C(=O)[C@H]2C[C@@H](O)CN2C#N)C(C(=O)NC2CCC(F)(F)CC2)c2cccnc2)cc1 (single isomer, unassigned) [583 Isomer 2] | > 5.70 | 5.00 to 5.70 | < 2 | > 30 | –
9 | CC(C)(C)c1ccc(N(C(=O)[C@H]2C[C@@H](O)CN2C#N)C(C(=O)NC2CCCCC2)c2cncc(F)c2)cc1 (single isomer, unassigned) | > 5.70 | > 5.70 | – | 10 to 30 | –
10 | CC1(C)CN(C#N)[C@@H](C(=O)N(c2ccc(C(C)(C)C)cc2)C(C(=O)NC2CCCCC2)c2cccnc2)CO1 (single isomer, unassigned) [208 Isomer 2] | > 5.70 | > 5.70 | 2 to 10 | – | –
11 | NC(=O)c1nc(C2CC2)ccc1N(C(=O)c1cnc[nH]1)C(C(=O)NC1CCCCC1)c1cccnc1 (single isomer, unassigned) [120 Isomer 1] | 4.52 to 5.00 | – | – | – | < 4.52
12 | CC(C)(C)c1ccc(N(C(=O)[C@H]2CSCCN2C#N)C(C(=O)NC2CCCCC2)c2cccnc2)cc1 (single isomer, unassigned) | > 5.70 | 5.00 to 5.70 | – | > 30 | –
13 | N#CN1CCC[C@@H]1C(=O)N(c1ccc(C2CC2)cc1)C(C(=O)NC1CCCCC1)c1cccnc1 (single isomer, unassigned) | > 5.70 | > 5.70 | 2 to 10 | > 30 | –
14 | CC(C)(C)c1ccc(N(C(=O)C2N(C#N)CC2(C)C)C(C(=O)NC2CCCCC2)c2cccnc2)cc1 (single isomer, unassigned) | > 5.70 | 5.00 to 5.70 | – | 2 to 10 | > 5.70
15 | C[C@H](NC(=O)C(c1cnccc1C(F)(F)F)N(C(=O)[C@H]1C[C@@](C)(O)CN1C#N)c1ccc(-c2ccccc2)cc1)c1ccccc1 (single isomer, unassigned) [1351 Isomer 1] | > 5.70 | – | < 2 | – | –
16 | CC(C)(C)c1ccc(N(C(=O)[C@H]2CCCN2C#N)C(C(=O)NC2CC2)c2cccnc2)cc1 (single isomer, unassigned) [459 Isomer 2] | > 5.70 | – | 10 to 30 | – | –
17 | CC(C)(C)c1ccc(N(C(=O)[C@H]2CCCN2C#N)C(C(=O)NC2CC2)c2cccnc2)cc1 (single isomer, unassigned) [459 Isomer 1] | > 5.70 | > 5.70 | 2 to 10 | – | –
18 | NC(=O)c1nc(C2CC2)ccc1N(C(=O)c1cnc[nH]1)C(C(=O)NC1CCCCC1)c1cccnc1 (single isomer, unassigned) [120 Isomer 2] | 4.52 to 5.00 | – | – | – | 4.52 to 5.00
19 | CC(C)(C)NC(=O)C(c1cccnc1)N(C(=O)[C@H]1C[C@@H](O)CN1C#N)c1ccc(C(C)(C)C)cc1 (single isomer, unassigned) [579 Isomer 1] | > 5.70 | > 5.70 | < 2 | – | –
20 | CO[C@@H]1C[C@H](C(=O)N(c2ccc(S(F)(F)(F)(F)F)cc2)C(C)(C(=O)NC2CCC(F)(F)CC2)c2cccnc2)N(C#N)C1 (single isomer, unassigned) | > 5.70 | – | < 2 | – | –
21 | CN1CCN(C#N)C(C(=O)N(c2ccc(C(C)(C)C)cc2)C(C(=O)NC2CCCCC2)c2cccnc2)C1 (single isomer, unassigned) [217 Isomer 2.2] | < 4.52 | – | > 30 | – | –
22 | C[C@@]1(O)C[C@H](C(=O)N(c2ccc(-c3ccccc3)cc2)C(C(=O)NC2CCC(F)(F)CC2)c2cnccc2C(F)(F)F)N(C#N)C1 (single isomer, unassigned) [1349 Isomer 2] | 5.00 to 5.70 | – | 2 to 10 | – | –
23 | CO[C@@H]1C[C@H](C(=O)N(c2ccc(S(F)(F)(F)(F)F)cc2)C(C(=O)NCCC2CCCCN2C(=O)OC(C)(C)C)c2cccnc2)N(C#N)C1 (single isomer, unassigned) [1121b Isomer 1] | 5.00 to 5.70 | – | > 30 | – | –
24 | CO[C@@H]1C[C@H](C(=O)N(c2ccc(S(F)(F)(F)(F)F)cc2)C(C(=O)N2CCC3(COC3)C2)c2cccnc2)N(C#N)C1 (single isomer, unassigned) [1174 Isomer 2] | > 5.70 | – | 10 to 30 | – | –
25 | CC1(C)CN(C#N)[C@@H](C(=O)N(c2ccc(S(F)(F)(F)(F)F)cc2)C(C(=O)NC2CCC(F)(F)CC2)c2cccnc2)CO1 (single isomer, unassigned) [1163 Isomer 1] | > 5.70 | – | 10 to 30 | – | –
26 | CO[C@@H]1C[C@H](C(=O)N(c2ccc(S(F)(F)(F)(F)F)cc2)C(C(=O)N[C@H]2C[C@@](C)(O)C2)c2cccnc2)N(C#N)C1 (single isomer, unassigned) [1195 Isomer 2] | > 5.70 | – | < 2 | – | –
27 | CN1CCN(C#N)C(C(=O)N(c2ccc(C(C)(C)C)cc2)C(C(=O)NC2CCCCC2)c2cccnc2)C1 (single isomer, unassigned) [217 Isomer 2.1] | > 5.70 | – | 2 to 10 | – | –
28 | CC(C)(C)c1ccc(N(C(=O)[C@H]2CCCN2C#N)C(C(=O)N2CCCC2)c2cccnc2)cc1 (single isomer, unassigned) [947 Isomer 2] | 5.00 to 5.70 | – | > 30 | – | –
